The record followed here is US20110268740A1 (INTERCELL, published 2011).

The target of assay [1] is T1, M2-PR, full-length M2 of mouse-adapted H1N1 Influenza A PR8, on cells (Influenza A virus A/PR/8/34 (H1N1)).
T1 chain: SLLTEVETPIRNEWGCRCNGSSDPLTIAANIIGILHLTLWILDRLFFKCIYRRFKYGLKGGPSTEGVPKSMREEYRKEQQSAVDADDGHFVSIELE
Kind of assay: flow cytometry on transfected 293T cells expressing M2-PR. Background: In flow cytometry, cells or beads pass a laser one at a time.

Assay [2] has as its target M2-VN/PR fusion protein on 293T cells (Influenza A virus (strain …)). Briefly: flow cytometry on transfected 293T cells expressing M2-VN/PR.
Assay [3] deals with T1, M2-PR, full-length M2 of mouse-adapted …. Briefly: flow cytometry on L929-M2#E9 cells expressing M2-PR.

Substitutions are numbered along the chain they refer to.

B1: fully human IgG1κ-D005 (antibody, V domains shown)
VH: EVQLVESGGALVQPGRSLRLSCRTSGLNFGDYPINWVRQAPGKGLEWVGFIKSKSYGVTTEFAASVEGRFTISRDDSRGIAYLQMNSLKTEDTAVYYCTSSSGFLYYFDYWGQGTLVTVSS
VL: DIVMTQSPDSLAVSLGERATINCKSSQSVLYTSNNKNYLGWYQQKPGQPPNLLIYWASTRESGVPDRFSGSGSGTDFTLTINSVQAEDVAVYYCQQYFMTPITFGQGTRLEIKR
Turning to B1, the EC50 in assay [1] and in assay [2] was 3.9 nM each time.

B2: scFv-E040-msFcγ2c (Fc fusion)
chain: DADPAQAAELVMTQSPDSLAVSLGERATINCKSSQSVLYSSNNENYLAWYQQKPGQPPKLLIYWASTRESGVPDRFSGSGSGTDFTLTINSVQAEDVAVYYCQQYFMTPITFGQGTRLEIKGGSSRSSSSGGGGSGGGGEVQLLESGGALVQPGRSLRLSCRTSGLNFGDYPINWVRQAPGKGLEWVGFIKSKSYGVTTEFAASVEGRFTISRDDSRGIAYLQMNSLKTEDTAVYYCTSSSGFLYYFDYWGQGTLVTVSSASTKGPSVTSGQAGRKLEPRVPITQNPCPPLKECPPCAAPDLLGGPSVFIFPPKIKDVLMISLSPMVTCVVVDVSEDDPDVQISWFVNNVEVHTAQTQTHREDYNSTLRVVSALPIQHQDWMSGKEFKCKVNNRALPSPIEKTISKPRGPVRAPQVYVLPPPAEEMTKKEFSLTCMITGFLPAEIAVDWTSNGRTEQNYKNTATVLDSDGSYFMYSKLRVQKSTWERGSLFACSVVHEGLHNHLTTKTISRSLGK
B2 yielded an EC50 in assay [3] of 0.73 nM.

B3: scFv-D005-msFcγ2c (Fc fusion)
chain: B2 chain with S40T, E44K, A48G, K59N, L144V
B3 had an EC50 in assay [3] of 0.68 nM.

B4: scFv-F052-msFcγ2c (Fc fusion)
chain: B2 chain with L10R, S18A, V37L, E44K, Q52K, D84E, R117K, E140Q, L144Q
B4 yielded an EC50 in assay [3] of 0.46 nM.

By EC50 is commonly meant the concentration giving half of the maximal effect. Low values mean higher potency in that assay, high ones lower potency in that assay.
